Measurements as given in US20120277184A1 (priority 2004, published 2012).

The chains behind the UniProt entries cited, without tags or fusion partners. Residues count along the entry.
UniProt P09616, 27-319 limits assumed: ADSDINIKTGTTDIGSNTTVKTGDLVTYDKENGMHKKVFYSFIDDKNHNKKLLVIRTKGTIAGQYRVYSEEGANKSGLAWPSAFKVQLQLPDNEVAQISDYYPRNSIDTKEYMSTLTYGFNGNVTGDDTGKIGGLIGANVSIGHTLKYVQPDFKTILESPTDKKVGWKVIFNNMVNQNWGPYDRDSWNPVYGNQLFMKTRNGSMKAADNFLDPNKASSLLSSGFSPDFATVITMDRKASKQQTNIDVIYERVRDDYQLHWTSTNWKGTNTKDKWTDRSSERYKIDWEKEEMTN

Legend:
α-HL = α-HL (Staphylococcus aureus, UniProt P09616); experiment: Hemolysis assay, protection of rabbit erythrocytes from α-HL; assay type: cell-based; conditions: read-out: Inhibition of cytotoxicity IC50; Table 3 section 2; staphylococcal α-toxin; tested form: TFA
LeTx = LeTx (Bacillus anthracis, UniProt P13423); experiment: Inhibition of LeTx cytotoxicity in RAW 264.7 cells (MTS cell viability)

In the case of `NC(CSCc1ccccc1)C(=O)NCC1OC2OC3C(CNC(=O)C(N)CSCc4ccccc4)OC(OC4C(CNC(=O)C(N)CSCc5ccccc5)OC(OC5C(CNC(=O)C(N)CSCc6ccccc6)OC(OC6C(CNC(=O)C(N)CSCc7ccccc7)OC(OC7C(CNC(=O)C(N)CSCc8ccccc8)OC(OC8C(CNC(=O)C(N)CSCc9ccccc9)OC(OC1C(O)C2O)C(O)C8O)C(O)C7O)C(O)C6O)C(O)C5O)C(O)C4O)C(O)C3O` (stereo not drawn), the IC50 (α-HL) is reported as 10.6 µM and the “Anti-LeTx activity / protection of RAW 264.7 cells from LeTx (in words)” value (LeTx; RAW 264.7 mouse macrophage cells, tested form: TFA) is reported as “detectible level of LeTx inhibiting activity”.
`CO[C@@H]1[C@@H](OC)[C@H]2O[C@H]3[C@H](OC)[C@@H](OC)[C@@H](O[C@H]4[C@H](OC)[C@@H](OC)[C@@H](O[C@H]5[C@H](OC)[C@@H](OC)[C@@H](O[C@H]6[C@H](OC)[C@@H](OC)[C@@H](O[C@H]7[C@H](OC)[C@@H](OC)[C@@H](O[C@@H]1[C@@H](CN)O2)O[C@@H]7CN)O[C@@H]6CN)O[C@@H]5CN)O[C@@H]4CN)O[C@@H]3CN` was tested, and the IC50 (LeTx; read-out: Inhibition of cytotoxicity IC50, Table 3 section 1, anthrax toxin) was 0.3 µM.
